{"source": "paper PMC6177439", "about": "“Peptide-oligonucleotide conjugates exhibiting pyrimidine-X cleavage specificity efficiently silence miRNA target acting synergistically with RNase H” (Scientific Reports, 2018)", "test_system": "96 nts fragment of HIV-1 RNA", "assay": "RNA cleavage assay, non-complementary 96 nts fragment of HIV-1 RNA", "details": "HIV-1 RNA 1 µM, conjugate 30 µM, 37 °C"}
{"smiles": "Cc1cn([C@H]2C[C@H](OP(=O)(O)OC[C@H]3O[C@@H](n4ccc(N)nc4=O)C[C@@H]3OP(=O)(O)OC[C@H]3O[C@@H](n4cnc5c(N)ncnc54)C[C@@H]3OP(=O)(O)OC[C@H]3O[C@@H](n4cnc5c(N)ncnc54)C[C@@H]3OP(=O)(O)OCCOCCOCCOCCOP(=O)(O)OCCOCCOCCOCCOP(=O)(O)OC[C@H]3O[C@@H](n4cnc5c(N)ncnc54)C[C@@H]3OP(=O)(O)OC[C@H]3O[C@@H](n4cnc5c(=O)[nH]c(N)nc54)C[C@@H]3OP(=O)(O)OC[C@H]3O[C@@H](n4cc(C)c(=O)[nH]c4=O)C[C@@H]3OP(=O)(O)OC[C@H]3O[C@@H](n4ccc(N)nc4=O)C[C@@H]3OP(=O)(O)OC[C@H]3O[C@@H](n4cc(C)c(=O)[nH]c4=O)C[C@@H]3OP(=O)(O)OC[C@H]3O[C@@H](n4cnc5c(=O)[nH]c(N)nc54)C[C@@H]3OP(=O)(O)OC[C@H]3O[C@@H](n4cnc5c(N)ncnc54)C[C@@H]3OP(=O)(O)OC[C@H]3O[C@@H](n4cc(C)c(=O)[nH]c4=O)C[C@@H]3OP(=O)(O)OC[C@H]3O[C@@H](n4cnc5c(N)ncnc54)C[C@@H]3OP(=O)(O)OC[C@H]3O[C@@H](n4cnc5c(N)ncnc54)C[C@@H]3OP(=O)(O)OC[C@H]3O[C@@H](n4cnc5c(=O)[nH]c(N)nc54)C[C@@H]3OP(=O)(O)OC[C@H]3O[C@@H](n4ccc(N)nc4=O)C[C@@H]3OP(=O)(O)OC[C@H]3O[C@@H](n4cc(C)c(=O)[nH]c4=O)C[C@@H]3OP(=O)(O)OC[C@H]3O[C@@H](n4cnc5c(N)ncnc54)C[C@@H]3OP(=O)(O)OC[C@H]3O[C@@H](n4ccc(N)nc4=O)C[C@@H]3OP(=O)(O)OC[C@H]3O[C@@H](n4cnc5c(N)ncnc54)C[C@@H]3OP(=O)(O)OC[C@H]3O[C@@H](n4cnc5c(N)ncnc54)C[C@@H]3OP(=O)(O)OC[C@H]3O[C@@H](n4cnc5c(=O)[nH]c(N)nc54)C[C@@H]3OP(=O)(O)OC[C@H]3O[C@@H](n4cc(C)c(=O)[nH]c4=O)C[C@@H]3OP(=O)(O)OC[C@H]3O[C@@H](n4ccc(N)nc4=O)C[C@@H]3OP(=O)(O)OC[C@H]3O[C@@H](n4cnc5c(N)ncnc54)C[C@@H]3OP(=O)(O)OC[C@H]3O[C@@H](n4cnc5c(=O)[nH]c(N)nc54)C[C@@H]3OP(=O)(O)OC[C@H]3O[C@@H](n4ccc(N)nc4=O)C[C@@H]3OP(=O)(O)OC[C@H]3O[C@@H](n4cnc5c(=O)[nH]c(N)nc54)C[C@@H]3OP(=O)(O)OC[C@H]3O[C@@H](n4cnc5c(N)ncnc54)C[C@@H]3OP(=O)(O)OC[C@H]3O[C@@H](n4cnc5c(N)ncnc54)C[C@@H]3OP(=O)(O)OC[C@H]3O[C@@H](n4cnc5c(N)ncnc54)C[C@@H]3OP(=O)(O)OC[C@H]3O[C@@H](n4cnc5c(=O)[nH]c(N)nc54)C[C@@H]3OP(=O)(O)OC[C@H]3O[C@@H](n4ccc(N)nc4=O)C[C@@H]3OP(=O)(O)OC[C@H]3O[C@@H](n4cc(C)c(=O)[nH]c4=O)C[C@@H]3OP(=O)(O)OC[C@H]3O[C@@H](n4cnc5c(=O)[nH]c(N)nc54)C[C@@H]3OP(=O)(O)OC[C@H]3O[C@@H](n4cnc5c(N)ncnc54)C[C@@H]3OP(=O)(O)OC[C@H]3O[C@@H](n4ccc(N)nc4=O)C[C@@H]3OP(=O)(O)OC[C@H]3O[C@@H](n4cc(C)c(=O)[nH]c4=O)C[C@@H]3OP(=O)(O)OC[C@H]3O[C@@H](n4cc(C)c(=O)[nH]c4=O)C[C@@H]3OP(=O)(O)OC[C@H]3O[C@@H](n4cnc5c(=O)[nH]c(N)nc54)C[C@@H]3O)[C@@H](COP(=O)(O)N[C@@H](CC(C)C)C(=O)N[C@@H](CCCNC(=N)N)C(=O)N[C@@H](CC(C)C)C(=O)N[C@@H](CCCNC(=N)N)C(=O)N[C@@H](CC(C)C)C(=O)N[C@@H](CCCNC(=N)N)C(=O)N[C@@H](CC(C)C)C(=O)N[C@@H](CCCNC(=N)N)C(=O)NCC(N)=O)O2)c(=O)[nH]c1=O", "values": [{"measurement": "cleavage specificity on HIV-1 RNA", "result": "predominantly Pyr-A cleavage specificity"}, {"measurement": "HIV-1 RNA cleaved at 24 h", "setting": "24 h, 50 mM Tris-HCl pH 7.0, 0.2 M KCl, 1 mM EDTA", "result": 85, "unit": "%"}]}
